{"source": "paper PMC9138599", "about": "“Clade-Specific Alterations within the HIV-1 Capsid Protein with Implications for Nuclear Translocation” (Biomolecules, 2022)", "experiment_in_all_cases": "SPR; CA hexamer amine-coupled to a ProteOn GLH chip, peptide injected as analyte; 25 °C; 1x PBS pH 7.4, 3% DMSO, 0.005% polysorbate 20; reference surface IgG b12; 1:1 binding model; KD from a Langmuir isotherm equilibrium fit and from a global kinetic fit; triplicate", "key": {"[1]": {"molecular_target": "HIV-1 CA hexamer from clade A1 (isolate 92UG037.1) (HIV-1 isolate 92UG037.1 (clade A1))"}, "[2]": {"molecular_target": "HIV-1 CA hexamer from clade A2 (isolate CDKTB48) (HIV-1 isolate CDKTB48 (clade A2))"}, "[3]": {"molecular_target": "HIV-1 CA hexamer from clade B (isolate NL4-3) (HIV-1 isolate NL4-3 (clade B))"}, "[4]": {"molecular_target": "HIV-1 CA hexamer from clade D (isolate 94UG114.1) (HIV-1 isolate 94UG114.1 (clade D))"}}, "note": "“And” between values parts separate entries of the source, which are not always exact repeats. Identical values can stand only once."}
{"substance": "CPSF-6 peptide (313-…-327)", "values": [{"measurement": "Kd", "setting": "[1]", "value": "181 µM and 257 µM"}, {"measurement": "Kd", "setting": "[2]", "value": "197 µM and 210 µM"}, {"measurement": "Kd", "setting": "[3]", "value": "98.6 µM and 93.8 µM"}, {"measurement": "Kd", "setting": "[4]", "value": "70 µM and 72.8 µM"}]}
